The structures appear in SMILES notation. The entries are a selection whose mix differs from that of the whole data set. The source made the active and inactive calls. Cut-off read from the data, not from the text of the source: active = inhibition above about 50%; inactive = the rest.

The subject of the assay is Plasmodium falciparum apicoplast DNA polymerase (apPOL). The assay can be described thus: Pf-apPOL inhibitors, biochemical, fluorescence (AID 1794808). The following applies: Recombinant Pf-apPOL, molecular beacon fluorescence, 1.5 h; at 10 µM; hits give high values.
`O=[N+]([O-])C1([N+](=O)[O-])COCOC1`: the inhibition (in general, the relative decrease from the control value, in per cent) is inactive: -5%.
The value for `CC(CNC(=O)C(C)([N+](=O)[O-])[N+](=O)[O-])([N+](=O)[O-])[N+](=O)[O-]` was inactive: -1.6%; that for `Cc1cc([N+](=O)[O-])c(NCC(C)([N+](=O)[O-])[N+](=O)[O-])c([N+](=O)[O-])c1[N+](=O)[O-]` was inactive: -9%.
With `O=[N+]([O-])c1cc2c(c([N+](=O)[O-])c1)-c1c(cc([N+](=O)[O-])cc1[N+](=O)[O-])C2=NO`, the inhibition is inactive: 2%.
As for `CC(CNc1c([N+](=O)[O-])cc([N+](=O)[O-])c(Cl)c1[N+](=O)[O-])([N+](=O)[O-])[N+](=O)[O-]`, the figure is inactive: -2.3%; as for `O=[N+]([O-])c1nonc1-c1n[nH]c(-c2nonc2[N+](=O)[O-])n1`, inactive: 3.8%; as for `CC(CNc1c([N+](=O)[O-])cc(Cl)cc1[N+](=O)[O-])([N+](=O)[O-])[N+](=O)[O-]`, inactive: -12.6%.
As to `O=c1[nH]c2c([N+](=O)[O-])c([N+](=O)[O-])c([N+](=O)[O-])c([N+](=O)[O-])c2[nH]1`, the inhibition was inactive: -2%.
The value for `CC(CCNC(=O)NCCC(C)([N+](=O)[O-])[N+](=O)[O-])([N+](=O)[O-])[N+](=O)[O-]` was inactive: 4.7%.
As for `O=[N+]([O-])c1nonc1NCNc1nonc1[N+](=O)[O-]`, the figure is inactive: -6.2%.
As for `O=[N+]([O-])c1cc([N+](=O)[O-])c(/C=N/O)c([N+](=O)[O-])c1`, the figure is inactive: 40.2%; as for `O=[N+]([O-])c1cc([N+](=O)[O-])c2c(c1)[nH][n+]1c3cc([N+](=O)[O-])cc([N+](=O)[O-])c3nn21`, inactive: 1.3%.
As to `O=[N+]([O-])c1ccc(-n2ncc3c([N+](=O)[O-])cc([N+](=O)[O-])cc32)c([N+](=O)[O-])c1`, the inhibition was inactive: 4.2%.
As for `CC(CNc1c([N+](=O)[O-])cc(F)cc1[N+](=O)[O-])([N+](=O)[O-])[N+](=O)[O-]`, the figure is inactive: -2.3%; as for `O=[N+]([O-])c1nonc1COc1nonc1[N+](=O)[O-]`, inactive: -0.8%.
Regarding `O=[N+]([O-])c1cc([N+](=O)[O-])c(C=Nc2ccccc2)c([N+](=O)[O-])c1`, the inhibition is inactive: 0.7%.
`O=[N+]([O-])c1cc2c(c([N+](=O)[O-])c1[N+](=O)[O-])OCCO2`: the inhibition was inactive: -2.6%.
In the case of `O=[N+]([O-])c1cc([N+](=O)[O-])c2c(c1)S(=O)(=O)c1cc([N+](=O)[O-])cc([N+](=O)[O-])c1N2`, the inhibition is inactive: -0.6%.

For the origin of these results see PubChem BioAssay AID1794808 (University of Kansas High Throughput Screening Laboratory, 2022).
